According to article PMC8145246 (Toxins, 2021):

Molecular target: MazF-mt9 toxin (M. tb), purified protein (M. tuberculosis) (UniProt P0CL62)
Experiment: ITC

## MazE-mt9 α4 peptide (Asp63-Gly77, 15 residues)
  Kd: 87 nM
